Pooled drug test results. Numbers come from NIAID ChemDB, via PubChem.

All rows: whole-cell or culture tests; agent: Mycobacterium tuberculosis

MIC bound comes from a single tested concentration. Blank or dashed fields: not listed here. ECn: concentration that inhibits the pathogen or its effect by n%. Inhibition is in % at the dose shown (toxicity tests: loss of growth or viability). Neighbouring rows are from separate reports. A number after MIC or MFC names an inhibition level or a share of isolates.

structure	strain	read by	endpoint	tested at	result
CC[C@H]1OC(=O)[C@H](C)[C@@H](O[C@H]2C[C@@](C)(OC)[C@@H](O)[C@H](C)O2)[C@H](C)[C@@H](O[C@@H]2O[C@H](C)C[C@H](N(C)C)[C@H]2O)[C@](C)(OC)C[C@@H](C)C(=O)[C@H](C)[C@@H](O)[C@]1(C)O	H37Rv	-	Mean MIC	-	8 µg/mL
Nc1nc2nn(-c3ccc(C(=O)NC(CCC(=O)O)C(=O)O)cc3)nc2c(=O)[nH]1	H37Rv	BACTEC	MIC	-	≥12.5 µg/mL
O=C1CC(c2ccccc2)Oc2cc(F)ccc21	H37Rv	-	inhibition	12.5 µg/mL	15%
CO[C@H]1/C=C/O[C@@]2(C)Oc3c(C)c(O)c4c(=O)c(c5oc6cc(N7CCN(CC(C)C)CC7)cc(=O)c6nc5c4c3=C2O)NC(=O)/C(C)=C\C=C\[C@H](C)[C@H](O)[C@@H](C)[C@@H](O)[C@@H](C)[C@H](OC(C)=O)[C@@H]1C	H37Rv	-	MIC	-	0.004 µg/mL
Nc1ccccc1/C=C/C(=O)c1ccc(Br)cc1O	H37Rv	-	EC50	-	>12.5 µg/mL
CCn1c(O)c(C(=O)Nc2cccs2)c(=O)n(CC)c1=S	H37Rv	-	MIC	-	12.5 µg/mL
O=C1CC(c2ccc(O)cc2)Oc2ccccc21	-	-	inhibition	12.5 µg/mL	18%
Nc1nc(=O)[nH]c(=O)[nH]1	H37Rv	-	MIC	-	>100 µg/mL
COC(=O)[C@@H]1[C@H](O)[C@H](C)C(O)[C@H](C)/C=C\C=C(/C)C(=O)Nc2c(C)c(OC(C)=O)c3c(c2O)C(=O)C(C)=C2OCOC(=C23)/C(C)=C/[C@@](C)(O)[C@H](O)[C@@H](C)[C@H]1OC(C)=O	INH-r	-	MIC	-	6.3 µg/mL
COc1ccc(OC)c(CNCCNC2C3CC4CC(C3)CC2C4)c1	-	-	MIC	-	12.5 µM
CC1=Nc2ccccc2NC2(C1)C(C1COC(C)(C)O1)OC1OC(C)(C)OC12	H37Rv	BACTEC	MIC bound	-	>12.5 µg/mL
CC(C)c1ccc2c(c1)CC[C@H]1[C@](C)(CNCCNC3CCCCC3)CCC[C@]21C	-	-	MIC	-	25 µM
Cc1ccccc1-n1c(SCC(=O)NC(=O)Nc2cccc(Cl)c2)nc2c(Br)cc(Br)cc2c1=O	H37Rv	BACTEC	inhibition	12.5 µg/mL	95%
O=c1oc2cc(Cl)ccc2c(=O)n1-c1cccc(Cl)c1	CNCTC MY331/88	-	MIC	-	4 µM
CCCCc1c(C#N)c(=O)n2c(N)c(C#N)cnc2c1SC	H37Rv	BACTEC	inhibition	6.25 µg/mL	0%
COc1ccc(CNCCNCCc2ccccc2Cl)c(OC)c1	-	-	MIC	-	50 µM
NC1CCN(c2c(F)cc3c(=O)c(C(=O)O)cn(C4CC4)c3c2Cl)C1	ATCC 35826	-	MIC	-	0.06 µg/mL
CC(C)=CCC/C(C)=C/CNCCNC(C)(C)CC(C)(C)C	-	-	MIC	-	25 µM
O=C(CSC1=NNC2(C(=O)N1)c1ccccc1-c1ccccc12)NC(=S)Nc1ccccc1	H37Rv	BACTEC	MIC bound	-	>12.5 µg/mL
C[C@@H]1CN(c2c(F)c(N)c3c(=O)c(C(=O)O)cn(C4CC4)c3c2F)C[C@H](C)N1	ATCC 35820	-	MIC	-	0.06 µg/mL
COc1ccccc1CCNCCNCC12CC3CC(CC(C3)C1)C2	-	-	MIC	-	50 µM
CC(C)(O)C(Cl)(Cl)Cl	H37Rv	-	MIC	-	>100 µg/mL
COC(=O)c1cc(NC(=O)O/N=C/c2cccnc2)cc(C(=O)OC)c1	H37Rv	BACTEC	MIC bound	-	>12.5 µg/mL
CCOCC(=O)OCC	H37Rv	-	MIC	-	>100 µg/mL
CC(C)N=c1cc2n(-c3ccc(Cl)cc3)c3ccccc3nc-2cc1Nc1ccc(Cl)cc1	MDR8	broth dilution / resazurin	MIC	-	4 µg/mL
CCN1C(=O)c2ccccc2C1=O	H37Rv	-	MIC	-	>100 µg/mL
c1ccc(C(CCNCCNCC23CC4CC(CC(C4)C2)C3)c2ccccc2)cc1	-	-	MIC	-	6.25 µM
CC1COc2c(N3CCN(C)CC3)c(F)cc3c(=O)c(C(=O)O)cn1c23	900241	-	MIC	-	0.75 µg/mL
O=C(NNC(=O)c1ccccc1)C(=O)NNC(=O)c1ccccc1	-	-	MIC	-	>200 µg/mL
CCOC(=O)Nc1ccc(C(=O)OC)c(O)c1	H37Rv	-	MIC	-	100 µg/mL
NCC[C@H](O)C(=O)N[C@@H]1C[C@H](N)[C@@H](O[C@H]2O[C@H](CN)[C@@H](O)[C@H](O)[C@H]2O)[C@H](O)[C@H]1O[C@H]1O[C@H](CO)[C@@H](O)[C@H](N)[C@H]1O	TN2508 (001/16)	-	MIC	-	>256 µg/mL
CO[C@H]1/C=C/O[C@@]2(C)Oc3c(C)c(O)c4c(O)c(c(/C=N/N5CCN(C)CC5)c(O)c4c3C2=O)NC(=O)/C(C)=C\C=C\[C@H](C)[C@H](O)[C@@H](C)[C@@H](O)[C@@H](C)[C@H](OC(C)=O)[C@@H]1C	5S	-	MIC	-	1 µg/mL
CCOC(=O)Nc1cc(NC/C(=C\O)c2ccc(C)cc2)c([N+](=O)[O-])c(N)n1	H37Rv	-	inhibition	12.5 µg/mL	0%
CCOC(=O)C(=O)C1C(=O)N(C)C2(C)CC1c1ccccc1O2	H37Rv	BACTEC	inhibition	12.5 µg/mL	17%
CCOC(=O)Nc1cc(NCC(O)CN(C)c2ccc(OC)cc2)c([N+](=O)[O-])c(N)n1	H37Rv	-	EC50	-	>12.5 µg/mL
CC(=O)c1ccc2oc3cc(N)ccc3c2c1	H37Rv	-	MIC	-	>100 µg/mL
NCC[C@H](O)C(=O)N[C@@H]1C[C@H](N)[C@@H](O[C@H]2O[C@H](CN)[C@@H](O)[C@H](O)[C@H]2O)[C@H](O)[C@H]1O[C@H]1O[C@H](CO)[C@@H](O)[C@H](N)[C@H]1O	9S	-	MIC	-	2.5 µg/mL
C=CCOCCN1CCN(CCCN2c3ccccc3Sc3ccc(C(F)(F)F)cc32)CC1.Cl	H37Rv	BACTEC	inhibition	12.5 µg/mL	99%
OCc1ccccc1Sc1ccccc1CNCCNCCc1ccccc1Cl	-	-	MIC	-	50 µM
NC(=O)NCCCCCC(=O)O	H37Rv	-	MIC	-	>100 µg/mL
COc1ccc2c3c1OC1C=CC(OC(C)=O)C4C(C2)N(C)CCC314	H37Rv	BACTEC	inhibition	12.5 µg/mL	-15%
C[C@@H]1[C@H]2C[C@@H](C[C@H]1NCCNC1C3CC4CC(C3)CC1C4)C2(C)C	-	-	MIC	-	12.5 µM
CCOC(=O)Nc1cc(N(CCc2ccccc2)Cc2ccccc2)c2nc(C)oc2c1	H37Rv	-	EC50	-	<12.5 µg/mL
CC1COc2c(N3CCN(C)CC3)c(F)cc3c(=O)c(C(=O)O)cn1c23	MDR	-	MIC50	-	4 µg/mL
Cc1ccc([As](=O)(O)O)c2cccnc12	H37Rv	-	MIC	-	>100 µg/mL
CC(C)c1ccc2c(c1)CC[C@H]1[C@](C)(CNCCNCCCO)CCC[C@]21C	-	-	MIC	-	25 µM
Nc1nc(NC(=O)OCc2ccccc2)cc(Cl)c1[N+](=O)[O-]	H37Rv	-	EC50	-	>12.5 µg/mL
COc1ccc2oc(=O)n(-c3ccc(Cl)cc3)c(=O)c2c1	CNCTC MY331/88	-	MIC	-	62.5 µM
CCCCC(CC)CN1CN(CC(CC)CCCC)CC(C)(NCCNCc2ccc(C(F)(F)F)cc2)C1	-	-	MIC	-	50 µM
CC1COc2c(N3CCN(C)CC3)c(F)cc3c(=O)c(C(=O)O)cn1c23	H37Rv	-	Mean MIC	-	0.75 µg/mL
C=C(C)CNC(=S)Nc1ccccc1	H37Rv	-	MIC	-	>100 µg/mL
CC1=NN(c2ccccc2)C(=O)C1N=Nc1ccc(S(=O)(=O)Nc2nnc(C)s2)cc1	INH-r	-	MIC	-	3.1 µg/mL
C/C(=N\NC(=O)c1ccccc1)C(=O)O	-	-	MIC	-	1 µg/mL
O=c1oc2cc(Cl)ccc2c(=O)n1-c1cccc([N+](=O)[O-])c1	CNCTC MY331/88	-	MIC	-	8 µM
CCCCC(CC)CN1CN(CC(CC)CCCC)CC(C)(NCCNCc2cccc(F)c2)C1	-	-	MIC	-	50 µM
CCN(CC)CCCNc1ccnc(N)n1.Cl	H37Rv	-	MIC	-	>100 µg/mL
COc1ccc(/C=C/C(=O)c2c(O)cccc2OC)cc1	H37Rv	-	inhibition	12.5 µg/mL	75%
O=P(O)(O)OC1OC(CO)C(O)C(O)C1O	H37Rv	BACTEC	MIC	-	≥12.8 µg/mL
COc1ccc(-n2c(=O)oc3ccc([N+](=O)[O-])cc3c2=O)cc1	CNCTC MY331/88	-	MIC	-	250 µM
Cc1ccc(Cl)c(S(N)(=O)=O)c1	H37Rv	-	MIC	-	>100 µg/mL
CC(=O)N=c1ccc2nc3c(cc(N)c4ccccc43)oc-2c1.Cl	H37Rv	BACTEC	MIC bound	-	>12.5 µg/mL
C[C@H](NCCNCc1ccc(C(F)(F)F)cc1)C1CCCCC1	-	-	MIC	-	50 µM
CC(C)(C)CC(C)(C)NCCNCc1ccc(C(F)(F)F)cc1	-	-	MIC	-	37.5 µM
Cc1ccc2c(c1)N(CC(O)CO)C(C)CC2	H37Rv	-	MIC	-	100 µg/mL
CCOCCCNCCNC[C@@H]1CC[C@H]2C[C@@H]1C2(C)C	-	-	MIC	-	50 µM
COc1ccc(/C=C/C(=O)c2ccc(OC)cc2O)cc1	-	-	EC50	-	>12.5 µg/mL
CCOC(=O)Nc1cc2c(nc(-c3ccccc3)c3nncn32)c(NC(c2ccccc2)c2ccccc2)n1	H37Rv	-	EC50	-	>12.5 µg/mL
COc1cc(C(=O)O)cc(C)c1Br	H37Rv	-	MIC	-	100 µg/mL
C[C@@H]1CN(c2c(F)c(N)c3c(=O)c(C(=O)O)cn(C4CC4)c3c2F)C[C@H](C)N1	H37Rv	-	Mean MIC	-	0.15 µg/mL
C1COCCN1.S=C(S)N1CCOCC1	H37Rv	BACTEC	inhibition	12.5 µg/mL	14%
COc1ccccc1CCNCCNC(C)C12CC3CC(CC(C3)C1)C2	-	-	MIC	-	50 µM
Nc1ccc(C(=O)O)c(O)c1	H37Ra	-	Median MIC	-	1.5 µg/mL
COC(=O)CCC(=O)CC(=O)C1=NS(=O)(=O)c2nc(S(N)(=O)=O)c(Cl)cc2N1	H37Rv	resazurin	inhibition	6.25 µg/mL	-5%
NC1CCN(c2nc3c(cc2F)c(=O)c(C(=O)O)cn3-c2ccc(F)cc2F)C1	Drug-resistant	-	MIC50	-	>8 µg/mL
CCOC(=O)Nc1cc(NCC(C)CN(C)c2ccccc2)cc(NC(=O)OCC)n1	H37Rv	-	EC50	-	>12.5 µg/mL
O=C(Nc1ccccc1)c1ccc([N+](=O)[O-])cc1O	H37Rv	-	MIC	-	25 µg/mL
CO[C@H]1/C=C/O[C@@]2(C)Oc3c(C)c(O)c4c(O)c(c(/C=N/N5CCN(C)CC5)c(O)c4c3C2=O)NC(=O)/C(C)=C\C=C\[C@H](C)[C@H](O)[C@@H](C)[C@@H](O)[C@@H](C)[C@H](OC(C)=O)[C@@H]1C	TN981	-	MIC	-	>32 µg/mL
O=S(=O)([O-])CCS(=O)(=O)[O-].[Na+].[Na+]	H37Rv	-	MIC	-	>100 µg/mL
O=c1nc2n(CCN(CCO)CCO)c3cc(Cl)c(Cl)cc3nc-2c(=O)[nH]1	H37Rv	BACTEC	MIC bound	-	>6.25 µg/mL
Cc1ccccc1NC(=O)C(=O)Nc1ccccc1C	H37Rv	-	MIC	-	>100 µg/mL
CCOC(=O)c1[nH]c2ccccc2c1/C=N/NC(N)=S	H37Rv	BACTEC	inhibition	6.25 µg/mL	74%
NC(=O)c1cccc2c1Oc1ccccc1S2	H37Rv	-	MIC	-	>100 µg/mL
COC1OC(CO)C(O)C1NC(C)=O	H37Rv	BACTEC	inhibition	12.5 µg/mL	29%
CC(C)c1ccc(N)cc1	H37Rv	-	MIC	-	0.19 µg/mL
CC1=C(C)C(c2ccccc2)CC(/C=N/NC(=O)c2ccccc2Cl)C1	-	-	MIC	-	100 µg/mL
O=C1C=C(Br)/C(=N\Cl)C=C1Br	H37Rv	-	MIC	-	100 µg/mL
O=CNNS(=O)(=O)c1ccccc1	-	-	MIC	-	>40 µg/mL
O=NN1CCN=C1c1ccc([N+](=O)[O-])cc1	H37Rv	BACTEC	MIC bound	-	>12.5 µg/mL
CN(C)C1CCc2cc3c(cc2C1O)CCCC3.Cl	H37Rv	-	MIC	-	>100 µg/mL

For reference, 10 entries again:

{"structure": "c1ccc(C(CCNCCNCC23CC4CC(CC(C4)C2)C3)c2ccccc2)cc1", "endpoint": "MIC", "result": "6.25 µM"}
{"structure": "Nc1ccc(C(=O)O)c(O)c1", "strain": "H37Ra", "endpoint": "Median MIC", "result": "1.5 µg/mL"}
{"structure": "CCOC(=O)Nc1cc(NCC(O)CN(C)c2ccc(OC)cc2)c([N+](=O)[O-])c(N)n1", "strain": "H37Rv", "endpoint": "EC50", "result": ">12.5 µg/mL"}
{"structure": "Nc1nc(NC(=O)OCc2ccccc2)cc(Cl)c1[N+](=O)[O-]", "strain": "H37Rv", "endpoint": "EC50", "result": ">12.5 µg/mL"}
{"structure": "C[C@@H]1CN(c2c(F)c(N)c3c(=O)c(C(=O)O)cn(C4CC4)c3c2F)C[C@H](C)N1", "strain": "H37Rv", "endpoint": "Mean MIC", "result": "0.15 µg/mL"}
{"structure": "CN(C)C1CCc2cc3c(cc2C1O)CCCC3.Cl", "strain": "H37Rv", "endpoint": "MIC", "result": ">100 µg/mL"}
{"structure": "O=CNNS(=O)(=O)c1ccccc1", "endpoint": "MIC", "result": ">40 µg/mL"}
{"structure": "CCOC(=O)Nc1cc(N(CCc2ccccc2)Cc2ccccc2)c2nc(C)oc2c1", "strain": "H37Rv", "endpoint": "EC50", "result": "<12.5 µg/mL"}
{"structure": "CCCCc1c(C#N)c(=O)n2c(N)c(C#N)cnc2c1SC", "strain": "H37Rv", "read by": "BACTEC", "endpoint": "inhibition", "tested at": "6.25 µg/mL", "result": "0%"}
{"structure": "Cc1ccc(Cl)c(S(N)(=O)=O)c1", "strain": "H37Rv", "endpoint": "MIC", "result": ">100 µg/mL"}